Measured values published in US9625458B2, “Biosensor” (priority 2002, dated 2017).
Residue numbers refer to the chain shown, from its start. Names may count otherwise.

B1: dipeptide BP D450C JPW4045 (conjugate, UniProt P23847 29-535, looked up, variant D450C)
Dipeptide-binding protein: KTLVYCSEGSPEGFNPQLFTSGTTYDASSVPLYNRLVEFKIGTTEVIPGLAEKWEVSEDGKTYTFHLRKGVKWHDNKEFKPTRELNADDVVFSFDRQKNAQNPYHKVSGGSYEYFEGMGLPELISEVKKVDDNTVQFVLTRPEAPFLADLAMDFASILSKEYADAMMKAGTPEKLDLNPIGTGPFQLQQYQKDSRIRYKAFDGYWGTKPQIDTLVFSITPDASVRYAKLQKNECQVMPYPNPADIARMKQDKSINLMEMPGLNVGYLSYNVQKKPLDDVKVRQALTYAVNKDAIIKAVYQGAGVSAKNLIPPTMWGYNDDVQDYTYDPEKAKALLKEAGLEKGFSIDLWAMPVQRPYNPNARRMAEMIQADWAKVGVQAKIVTYEWGEYLKRAKDGEHQTVMMGWTGDNGDPDNFFATLFSCAASEQGSNYSKWCYKPFEDLIQPARATCDHNKRVELYKQAQVVMHDQAPALIIAHSTVFEPVRKEVKGYVVDPLGKHHFENVSIE
modifications: JPW4045 dye label
B2: dipeptide BP D450C Acrylodan (conjugate, UniProt P23847 29-535, looked up, variant D450C)
Dipeptide-binding protein: B1 Dipeptide-binding protein
modifications: acrylodan conjugate
B3: ribose BP L236C JPW4039 (conjugate, UniProt P02925 26-296, looked up, variant L236C)
Ribose import binding protein …: KDTIALVVSTLNNPFFVSLKDGAQKEADKLGYNLVVLDSQNNPAKELANVQDLTVRGTKILLINPTDSDAVGNAVKMANQANIPVITLDRQATKGEVVSHIASDNVLGGKIAGDYIAKKAGEGAKVIELQGIAGTSAARERGEGFQQAVAAHKFNVLASQPADFDRIKGLNVMQNLLTAHPDVQAVFAQNDEMALGALRALQTAGKSDVMVVGFDGTPDGEKAVNDGKLAATIAQCPDQIGAKGVETADKVLKGEKVQAKYPVDLKLVVKQ
modifications: JPW4039 dye conjugate
B4: ribose BP L236C JPW4045 (conjugate, UniProt P02925 26-296, looked up, variant L236C)
Ribose import binding protein …: B3 Ribose import binding protein …
modifications: JPW4045 dye label
B5: ribose BP L265C JPW4042 (conjugate, UniProt P02925 26-296, looked up, variant L265C)
Ribose import binding protein …: B3 Ribose import binding protein … with C236L, L265C
modifications: JPW4042 label
B6: ribose BP T135C JPW4045 (conjugate, UniProt P02925 26-296, looked up, variant T135C)
Ribose import binding protein …: B3 Ribose import binding protein … with T135C, C236L
modifications: JPW4045 dye conjugate
B7: ribose BP L265C Acrylodan (conjugate, UniProt P02925 26-296, looked up, variant L265C)
Ribose import binding protein …: B3 Ribose import binding protein … with C236L, L265C
modifications: acrylodan conjugate
B8: ribose BP T135C NBD (conjugate, UniProt P02925 26-296, looked up, variant T135C)
Ribose import binding protein …: B3 Ribose import binding protein … with T135C, C236L
modifications: NBD dye conjugate
B9: ribose BP L236C JPW4042 (conjugate, UniProt P02925 26-296, looked up, variant L236C)
Ribose import binding protein …: B3 Ribose import binding protein …
modifications: JPW4042 dye conjugate
B10: ribose BP T135C Acrylodan (conjugate, UniProt P02925 26-296, looked up, variant T135C)
Ribose import binding protein …: B3 Ribose import binding protein … with T135C, C236L
modifications: acrylodan conjugate
B11: ribose BP T135C JPW4042 (conjugate, UniProt P02925 26-296, looked up, variant T135C)
Ribose import binding protein …: B3 Ribose import binding protein … with T135C, C236L
modifications: JPW4042 dye conjugate
B12: ribose BP L265C JPW4045 (conjugate, UniProt P02925 26-296, looked up, variant L265C)
Ribose import binding protein …: B3 Ribose import binding protein … with C236L, L265C
modifications: JPW4045 label
B13: ribose BP L236C NBD (conjugate, UniProt P02925 26-296, looked up, variant L236C)
Ribose import binding protein …: B3 Ribose import binding protein …
modifications: NBD label
B14: ribose BP L265C NBD (conjugate, UniProt P02925 26-296, looked up, variant L265C)
Ribose import binding protein …: B3 Ribose import binding protein … with C236L, L265C
modifications: NBD dye conjugate
B15: ribose BP T135C Fluorescein (conjugate, UniProt P02925 26-296, looked up, variant T135C)
Ribose import binding protein …: B3 Ribose import binding protein … with T135C, C236L
modifications: fluorescein conjugate
B16: ribose BP L236C Fluorescein (conjugate, UniProt P02925 26-296, looked up, variant L236C)
Ribose import binding protein …: B3 Ribose import binding protein …
modifications: fluorescein conjugate
B17: ribose BP L265C JPW4039 (conjugate, UniProt P02925 26-296, looked up, variant L265C)
Ribose import binding protein …: B3 Ribose import binding protein … with C236L, L265C
modifications: JPW4039 label

Experiment: Fluorescence emission spectra without and with saturating ligand (wavelength shift, ΔIstd, ΔRmax)
Details: for λmax,apo (nm): absence of ligand; for ΔIstd: standard intensity change; for ΔIstd / ΔRmax: unbound vs ligand-saturated; for ΔRmax: standard ratiometric change
Method in brief: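 Emission spectra of bPBP–fluorophore conjugates (50–1000 nM protein, 25 °C, stirred) recorded without and with saturating ligand, using fluorophore-specific excitation. Wavelength shift, ΔIstd (intensity change at the mid-point wavelength) and ΔRmax (maximal ratiometric change over enumerated band pairs, 2 nm steps, 10 nm width) derived.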

[1] = emission maximum, saturating ligand (ligand column)
[2] = wavelength of emission maximum, saturating ligand

Row | Molecule | λmax,apo (nm) (emission maximum) | λmax,sat (nm) [1] | ΔIstd | ΔRmax | λmax,apo (nm) (wavelength of emission maximum) | λmax,sat (nm) [2]
1 | B1 | 663 | 666 | 0.23 | 1.18 |  | 
2 | B2 | 508 | 521 | 0.06 | 1.64 |  | 
3 | B3 |  |  |  |  | 589 | 588
4 | B4 |  |  |  |  | 643 | 658
5 | B5 |  |  |  |  | 650 | 654
6 | B6 |  |  |  |  | 647 | 664
7 | B7 |  |  |  |  | 500 | 501
8 | B8 |  |  |  |  | 542 | 544
9 | B9 |  |  |  |  | 646 | 670
10 | B10 |  |  |  |  | 518 | 498
11 | B11 |  |  |  |  | 680 | 674
12 | B12 |  |  |  |  | 669 | 663
13 | B13 |  |  |  |  | 518 | 525
14 | B14 |  |  |  |  | 545 | 540
15 | B15 |  |  |  |  | 526 | 523
16 | B16 |  |  |  |  | 520 | 520
17 | B17 |  |  |  |  | 600 | 596
